From patent US20030186887A1, “Compounds for detection of infection by chlamydophila abortus” (priority 2000, published 2003)
Ends that are not written are not given here. * marks the point of attachment. Biotin = O=C1N[C@H]2[C@H](CS[C@H]2CCCCC(=O)*)N1

System: antibodies to C. abortus
Test: ELISA, comparison of compounds for sensitivity and specificity on 553 sera (second Table 4)
Format: binding, sheep
Conditions: for Sensitivity % Clinical/Micro pos'ive: 153 animals with clinical/microbiological evidence of infection; for Sensitivity % All infected sheep: all 198 challenged animals taken as positive
[1] = 1X CO: positivity defined as an OD ≧ the Cutoff OD
[2] = 2X CO: positivity defined as an OD ≧ 2 times the Cutoff OD

| Substance | Specificity % [1] | Sensitivity % Clinical/Micro pos'ive (1X CO) | Sensitivity % All infected sheep (1X CO) | Specificity % [2] | Sensitivity % Clinical/Micro pos'ive (2X CO) | Sensitivity % All infected sheep (2X CO) |
| --- | --- | --- | --- | --- | --- | --- |
| GKGSSIAADQNKGSSIAADQ [Compound #2] | 66.8% | 76.5% | 65.7% | 80.9% | 65.3% | 53.0% |
| SGTAAANYKTKGTAAANYKT [Compound #1] | 48.2% | 84.3% | 73.7% | 79.4% | 69.9% | 59.1% |
| Biotin-KASSAAFNLVGLIVKGSSIAADQ [Compound 2/L] | 54.4% | 88.9% | 79.8% | 75.2% | 76.5% | 64.7% |
| GSGSGSGSGSGGVKGSSIAADQ [Compound 2-A] | 60.3% | 86.3% | 75.3% | 76.1% | 77.8% | 66.2% |
| Biotin-KTITGMGAVPTGTAAANYKT [Compound 1/AX] | 99.2% | 65.4% | 51.5% | 99.7% | 56.2% | 43.4% |
